Pooled drug test results. Numbers come from NIAID ChemDB, via PubChem.

All rows: growth or infection tests; agent: HIV-1; endpoint: EC50

Rows are shuffled and stem from different studies. An empty or dashed field is not shown. ECn is the concentration giving n% inhibition of infection, replication or growth.

structure	read by	changes	setting	cells	strain or isolate	value
CC(C)OC(=O)[C@H](C)N[P@](=O)(CO[C@H](C)Cn1cnc2c(N)ncnc21)Oc1ccccc1	luciferase / reporter gene			TZM-bl	NL4-3	0.00048 µM
O=C1N(Cc2ccc(CO)cc2)[C@H](Cc2ccccc2)[C@H](O)[C@@H](O)[C@@H](Cc2ccccc2)N1Cc1ccc(CO)cc1	virus yield			MT-2	RF	<0.15 µM
Cc1cc(=O)c2ccc(N=C=S)cc2o1	p24 / ELISA			PBMC	ADA	0.157 µM
Cc1cc(C)c(Nc2ccnc(Nc3ccc(C#N)cc3)n2)c(C)c1	absorbance			PBMC	7324-1	0.0017 µM
CC(C)Nc1cccnc1N1CCN(C(=O)c2cc3cc(NS(C)(=O)=O)ccc3[nH]2)CC1	cytopathic effect	RT-V106A		CEM	E-2 (RT-V106A)	0.045 µg/mL
Cc1ccnc2c1NC(=O)c1cccnc1N2C1CC1	cytopathic effect	RT-V106A		CEM	IIIB	0.8 µg/mL
CC(C)[C@H](NC(=O)c1ccc2ccccc2n1)C(=O)N[C@@H](Cc1ccccc1)[C@H](O)CN1CC[C@@H](OCc2ccncc2)C[C@H]1C(=O)NC(C)(C)C	p24 / ELISA / antigen			PBMC	VR949	0.011 µM
C[C@@H](Cn1cnc2c(N)ncnc21)OCP(=O)(O)O	p24 / syncytia			PBL	IIIB	>20 µM
Cc1cc(C#N)cc(C)c1Oc1nc(Nc2ccc(C#N)cc2)nc(N)c1Br	absorbance			PBMC	1617-1	0.0015 µM
COC(=O)N[C@H](C(=O)N[C@@H](Cc1ccccc1)[C@@H](O)CN(Cc1ccc(-c2ccccn2)cc1)NC(=O)[C@@H](NC(=O)OC)C(C)(C)C)C(C)(C)C	p24 / luminescence	L10F V32I M46I I54M A71V I84V		MT-4	NL4-3	0.42 µM
CC(C)CCC[C@@H](C)[C@H]1CC[C@H]2[C@@H]3CC[C@H]4C[C@@H](CCC=C(c5cc(Cl)c(O)c(C(=O)O)c5)c5cc(Cl)c(O)c(C(=O)O)c5)CC[C@]4(C)[C@H]3CC[C@]12C	p24 / RT activity			Macrophage	BaL	19.7 µM
Cc1cn([C@H]2C[C@H](N=[N+]=[N-])[C@@H](CO)O2)c(=O)[nH]c1=O	cytopathic effect / MTS			MT-4	RF	0.0019 µM
Cc1cn([C@H]2C=C[C@@H](CO)O2)c(=O)[nH]c1=O	luciferase	RT-V118I M184V		HeLa	Recombinant	1.59 µM
C[C@H](Cn1cnc2c(N)ncnc21)OCP(=O)(O)O	XTT / p24		7 d, clinical isolate	PBMC	96250	0.01 µM
Nc1nc(=O)n([C@@H]2CS[C@H](CO)O2)cc1F	single cycle / fluorescence	A114S/M184V		PBMC	Clinical isolate	>42 µM
Cc1cc(C#CC2CC2)cc(C)c1Oc1ccnc(Nc2ccc(C#N)cc2)n1	MTT	RES056		MT-4	IIIB	1 µM
Cc1cc(Cl)cc(S(=O)(=O)c2cccc(N)c2C#N)c1	β-galactosidase	RT-Y188C		HeLa + HELA CD4+		1.7 µM
Cc1cn([C@H]2C[C@H](N=[N+]=[N-])[C@@H](CO)O2)c(=O)[nH]c1=O	p24 / ELISA			PBMC	D79	0.022 µM
Cc1cn([C@H]2C[C@H](N=[N+]=[N-])[C@@H](CO)O2)c(=O)[nH]c1=O	cytopathic effect	RT-K103N		CEM	Y-1 (RT-K103N)	0.12 µM
C=C(C)[C@H]1CC[C@]23CC(=C)[C@H](C[C@H]2[C@]1(C)CCC(=O)OC)[C@@H](O)C3=O	luciferase / luminescence			MT-4	NL4-3	>44 µM
CN1N=C(N)c2cn([C@@H]3O[C@H](COP(=O)(O)O)[C@@H](O)[C@H]3O)c3ncnc1c23	XTT			CEM + CEM-SS	LAV	0.07 µM
COc1cc(C(F)(F)F)cc(S(=O)(=O)c2cccc(N)c2C#N)c1	β-galactosidase	RT-K103N V108I		HeLa + HELA CD4+		10 µM
S=C(NCCc1cccs1)Nc1ccc(Br)cn1	plaque count	RT-M41L D67N L210W T215Y		HT4 + HeLa	J179-1 Clinical isolate NRTI-resistant	0.055 µM
Cc1ccnc2c1NC(=O)c1cccnc1N2C1CC1	antigen	WT		C8166	NL4-3	0.01197 µM
Cc1cc(O)cc(S(=O)(=O)c2cccc(N)c2C#N)c1	β-galactosidase	RT-Y181C		HeLa + HELA CD4+		36 µM
O=c1[nH]cnc2c1ncn2[C@H]1CC[C@@H](CO)O1	XTT	RT-K65R		MT-2	HXB2D (RT-K65R)	20 ± 1.1 µM
CCOCn1c(Cc2ccccc2)c(C(C)C)c(=O)[nH]c1=O	cytopathic effect	RT-L100I		CEM	A-0 (RT-L100I)	0.0028 µg/mL
CC(C)Nc1cccnc1N1CCN(C(=O)c2cc3cc(NS(C)(=O)=O)ccc3[nH]2)CC1	MTT	E138K		MT-4	IIIB	0.069 µM
Cc1ccnc2c1NC(=O)c1cccnc1N2C1CC1	plaque count	RT-D67N K70R Y181C T215Y K219Q		HT4 + HT4 LacZ-1	RTMC (RT-Y181C)	5.6 µM
Cc1cn([C@H]2C[C@H](N=[N+]=[N-])[C@@H](CO)O2)c(=O)[nH]c1=O	plaque count			HT4 + HT4-6C	A012D	1.03 µM
Cc1c(Sc2ccccc2)n(COCCO)c(=O)[nH]c1=O	cytopathic effect / XTT			CEM + CEM-SS	IIIB	17.8 µM
Cc1cc(C#Cc2ccccc2)cc(C)c1Oc1ccnc(NC2CCN(Cc3ccc(S(N)(=O)=O)cc3)CC2)n1	MTT	E138K		MT-4	IIIB	0.037 µM
C1CNCCNCCCN(CCCN2CCCNCCNCCCNCC2)CCNC1	cytopathic effect / MTS	AMD3100-resistant		MT-4	NL4-3	67.1 µM
CC(C)Nc1cccnc1N1CCN(C(=O)c2cc3cc(NS(C)(=O)=O)ccc3[nH]2)CC1	antigen	RT-P236L		MT-4	MFE30(RT-P236L)	~0.9 µM
Cc1cccc(C)c1Oc1ccnc(Nc2ccc(C#N)cc2)n1	MTT	Y181C		MT-4	IIIB	0.06 µM
Cc1c(N)nc([C@H](CC(N)=O)NC[C@H](N)C(N)=O)nc1C(=O)N[C@H](C(=O)N[C@H](C)[C@@H](O)[C@H](C)C(=O)N[C@H](C(=O)NCCc1nc(-c2nc(C(=O)NCCC[S+](C)C)cs2)cs1)[C@@H](C)O)C(O[C@@H]1O[C@@H](CO)[C@@H](O)[C@H](O)[C@@H]1O[C@H]1O[C@H](CO)[C@@H](O)[C@H](OC(N)=O)[C@@H]1O)c1cnc[nH]1	XTT / p24			Macrophage + Monocytes/macrophages	BaL	>0.3 µg/mL
CC(=O)N1CCC(C(=O)N(CCCN2CCC(Cc3ccc(C(N)=O)cc3)CC2)c2ccc(C)c(Cl)c2)CC1	luciferase			U87 (CD4+ CCR5+) + U87	R5X4 subtype B_1 recombinant	0.007 µM
Cc1cn([C@H]2C[C@H](N=[N+]=[N-])[C@@H](CO)O2)c(=O)[nH]c1=O	cytopathic effect / XTT			AA5	IIIB	0.01 µM
Cc1ccc(/C=C/c2cc(C)c(Oc3ccnc(Nc4ccc(C#N)cc4)n3)c(C)c2)cc1	MTT	E138K		MT-4	IIIB	0.307 µM
Nc1nc(=O)n([C@@H]2CS[C@H](CO)O2)cc1F	recombinant virus assay	D67N/T69N/K70R/K103N/M184V/G190S/T215F/K219Q		MT-2	Clinical isolate	>13.3 µM
Cc1cn([C@H]2C[C@H](N=[N+]=[N-])[C@@H](CO)O2)c(=O)[nH]c1=O	cytopathic effect / trypan blue			MT-4	NDR500	0.003 µM
Cc1cn([C@H]2C[C@H](N=[N+]=[N-])[C@@H](CO)O2)c(=O)[nH]c1=O	virus yield			H9	IIIB	>300 µg/mL
CC(C)(C)NC(=O)[C@@H]1CN(Cc2cccnc2)CCN1C[C@@H](O)C[C@@H](Cc1ccccc1)C(=O)N[C@H]1c2ccccc2C[C@H]1O	GFP / reporter gene			CEM-GXR	NL4-3	0.029 µM
N#Cc1cc2[nH]c3ccccc3c2n(-c2ccc([N+](=O)[O-])cc2)c1=O	luciferase			HeLa	NL4-3 WT	0.1769 µM
CC(C)(C)NC(=O)[C@@H]1C[C@@H]2CCCC[C@@H]2CN1C[C@@H](O)[C@H](Cc1ccccc1)NC(=O)[C@H](CC(N)=O)NC(=O)c1ccc2ccccc2n1					RF	0.0064 µM
Cc1ccnc2c1NC(=O)c1cccnc1N2C1CC1	cytopathic effect / XTT			U-937	IIIB	0.3 µM
Cc1occc1C(=S)Nc1ccc(Cl)c(/C=N/OC(C)(C)C)c1	cytopathic effect	RT-V106A		CEM	IIIB	0.05 µg/mL
CCc1c(CC2CCCCC2)nc(SCC(=O)c2ccccc2)[nH]c1=O	ELISA	WAN		C8166	Clinical isolate	0.025 µM
Nc1ccn([C@H]2CC[C@@H](CO)O2)c(=O)n1	plaque count	RT-V75T		CD4+HELA + HeLa	HXB2	1.35 ± 0.07 µM
CCc1c(Sc2ccccn2)n(COCc2ccccc2)c(=O)[nH]c1=O	cytopathic effect / XTT	RT-V90I T139I P225S		CEM + CEM-SS	IIIB	0.002 µM
Cn1c2ccccc2c2c1cc(C#N)c(=O)n2-c1ccc([N+](=O)[O-])cc1	luciferase	RT-M41L D67N M184V L210W T215Y		HeLa	NRTI resistant	0.155 µM
Cc1cc(C#Cc2ccccc2N)cc(C)c1Oc1ccnc(Nc2ccc(C#N)cc2)n1	MTT	RES056		MT-4	IIIB	>8.88 µM
CO[C@H]1[C@H]2[C@@H]([C@@H](OC(C)=O)[C@@H](C)C(=O)[C@@]34C[C@H](C)[C@H](O)[C@]3(/C=C(\C)[C@H]1O)O4)C2(C)C	luciferase / luminescence			MT-4	NL4-3	>44 µM
C[C@H](Cn1cnc2c(N)ncnc21)OCP(=O)(O)O	p24 / syncytia			PBL	IIIB	0.37 µM
COc1ccc(S(=O)(=O)N(CC(C)C)C[C@@H](O)[C@H](Cc2ccc(OC)c(Cl)c2)NC(=O)O[C@H]2CO[C@H]3OCC[C@H]32)cc1	p24 / luminescence	L23I E34Q K43I M46I I50L G51A L63P A71V V82A T91A		MT-4	NL4-3	0.0023 µM
Cc1cn([C@@H]2O[C@H](CO[Si](C)(C)C(C)(C)C)C3(OS(=O)(=O)C=C3N)[C@H]2O[Si](C)(C)C(C)(C)C)c(=O)n(C)c1=O	cytopathic effect	RT-V106A		CEM	IIIB	0.23 µg/mL
Cc1cn([C@H]2C[C@H](N=[N+]=[N-])[C@@H](CO)O2)c(=O)[nH]c1=O	luciferase / luminescence			MT-4	NL4-3	0.008 µg/mL
CC(=O)Nc1cccc(C#Cc2cc(C)c(Oc3ccnc(Nc4ccc(C#N)cc4)n3)c(C)c2)c1	MTT	F227L + V106A		MT-4	IIIB	>0.844 µM
Cc1cn([C@H]2C=C[C@@H](CO)O2)c(=O)[nH]c1=O	recombinant virus assay	A62V/V75I/F77L/F116L/Q151M/M184V		MT-2	Clinical isolate	3.504 µM
O=C1c2ccccc2C2(c3ccccc3)SCCN12	p24 / ELISA			PBMC	D148/88	0.64 µM
CCCCCCCCCCCCCC(=O)O[C@H]1CCC(NC(=O)[C@H](OC)[C@H](O)[C@@H](O)[C@H](O)/C=C/C(C)C)C(=O)NC1	GFP / reporter gene			CEM-GXR	NL4-3	0.015 µM
Nc1nc(=O)n([C@@H]2CS[C@H](CO)O2)cc1F	plaque count	RT-V75T		CD4+HELA + HeLa	HXB2	0.28 ± 0.1 µM
Cc1ccc(-c2ccc3c(c2)C=C(C(=O)Nc2ccc(C[N+](C)(C)C4CCOCC4)cc2)CCC3)cc1	antigen			PBMC	IIIB X4	>1 µg/mL
CC(C)=CCOc1cc(NC(=S)c2ccoc2C)ccc1Cl	cytopathic effect			C8166	IIIB	0.002 µg/mL
Cc1cc(Br)cc(S(=O)(=O)c2cccc(N)c2C#N)c1	β-galactosidase	RT-V108I Y181C		HeLa + HELA CD4+		13 µM